Measurements: paper PMC8481833, “Kinetic Characterization and Inhibitor Screening of Pyruvate Kinase I From Babesia microti” (Frontiers in Microbiology, 2021)

Amino acid sequences for entries named in this document (tags omitted). A change or cut given only in a name is not applied to a line headed by its entry.
UniProt A0A1N6LXR4: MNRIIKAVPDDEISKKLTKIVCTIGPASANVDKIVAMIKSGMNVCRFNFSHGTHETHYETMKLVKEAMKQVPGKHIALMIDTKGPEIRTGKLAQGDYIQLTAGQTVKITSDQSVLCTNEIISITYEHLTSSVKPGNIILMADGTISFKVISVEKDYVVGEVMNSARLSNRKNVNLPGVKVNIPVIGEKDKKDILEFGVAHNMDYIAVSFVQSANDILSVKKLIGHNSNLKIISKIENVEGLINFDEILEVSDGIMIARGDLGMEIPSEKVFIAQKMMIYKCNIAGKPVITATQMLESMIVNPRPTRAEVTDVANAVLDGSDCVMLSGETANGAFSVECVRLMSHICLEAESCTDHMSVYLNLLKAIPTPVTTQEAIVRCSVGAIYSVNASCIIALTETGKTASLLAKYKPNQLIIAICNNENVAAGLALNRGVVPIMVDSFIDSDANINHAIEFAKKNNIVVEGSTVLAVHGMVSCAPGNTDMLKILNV
UniProt I7J7V6: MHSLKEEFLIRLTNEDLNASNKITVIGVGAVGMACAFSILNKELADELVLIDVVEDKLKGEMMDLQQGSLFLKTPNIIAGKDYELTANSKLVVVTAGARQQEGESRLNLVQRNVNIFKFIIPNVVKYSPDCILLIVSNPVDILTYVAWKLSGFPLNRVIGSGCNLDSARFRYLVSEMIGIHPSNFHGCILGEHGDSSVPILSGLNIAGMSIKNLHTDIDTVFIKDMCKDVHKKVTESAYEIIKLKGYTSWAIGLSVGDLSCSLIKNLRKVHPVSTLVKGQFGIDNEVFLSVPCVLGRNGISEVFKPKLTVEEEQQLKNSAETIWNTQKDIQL

Tests used:
[1] = biological target: rBmPYKI (Babesia microti, UniProt A0A1N6LXR4); test: rBmPYKI inhibition, indirect coupled LDH assay; assay type: biochemical
[2] = biological target: rBmLDH (Babesia microti, UniProt I7J7V6); test: rBmLDH inhibition (LDH reaction of the coupled assay); assay type: biochemical

Disodium monofluorophosphate
effect on the activity of rBmPYKI [1]: no effect | IC50 ([1]; read-out: IC50 rBmPYKI, dash = no effect): > 1950 µM | effect on rBmLDH / LDH reaction activity [2]: no effect | IC50 ([2]; read-out: IC50 rBmLDH, dash = LDH reaction not affected / no effect): > 1950 µM
